Anti-infective test results gathered from many reports (values: NIAID ChemDB through PubChem).

All rows: tests in culture; species: Candida albicans; measure: MIC100

MIC50, MIC90 and the like: level of inhibition, or share of isolates inhibited. An empty or dashed field is not shown. Two numbers with a dash give a range or band. Rows are shuffled and stem from different studies.

| smiles | strain | method | result |
|---|---|---|---|
| CCCCCCCCCCCn1cc[n+](COCCCOC[n+]2ccn(CCCCCCCCCCC)c2)c1 | ATCC 90028 | agar diffusion | 81 µM |
| Cc1ccc(-c2c3c(N)c4c(nc3nc3c2c(C)nn3-c2ccccc2)CCCCC4)cc1 | CCC 130 | broth dilution / absorbance | 125 µg/mL |
| CC(=O)Nc1ccc(OCC(=O)N2N=C(c3nc4ccccc4[nH]3)CC2c2ccc([N+](=O)[O-])cc2)cc1 | MTCC 227 | - | 100 µg/mL |
| O=c1ccc2c(ccc3nc(N4CCN(c5ncccn5)CC4)sc32)o1 | MTCC 183 | - | 100 µg/mL |
| O/N=C\c1ccccc1Cl | - | - | 710 µM |
| CCCCCCCn1cc[n+](COCCCOC[n+]2ccn(CCCCCCC)c2)c1 | ATCC 90028 | agar diffusion | 158 µM |
| O=C(O[C@@H]1COC(=O)c2cc(O)c(O)c(O)c2-c2c(cc(O)c(O)c2O)C(=O)OC1C1OC(=O)c2cc(O)c(O)c(O)c2-c2c(O)c(O)c(O)c3c2C(=O)OC1[C@H]3O)c1cc(O)c(O)c(O)c1 | ATCC 64548 | broth dilution | 580 µg/mL |
| Cc1ccc(-c2nc3ccccc3c(=O)n2-c2ccc(C(=O)NN3C(=O)/C(=C/c4ccc([N+](=O)[O-])cc4)SC3c3ccc(F)cc3)cc2)cc1 | MTCC 227 | - | 500 µg/mL |
| O=[N+]([O-])c1cccc(/C=N\O)c1 | - | - | 6020 µM |
| O=C1CSC(N2N=C(c3ccc(F)cc3)CC2c2cc3ccccc3nc2Cl)=N1 | MTCC 227 | - | 250 µg/mL |
| COc1ccc(CN2CCN(c3nc4ccc5c(ccc(=O)n5C)c4s3)CC2)c(OC)c1OC | MTCC 183 | - | 25 µg/mL |
| Cc1ccc(-c2c3c(N)c4c(nc3nc3c2c(C)nn3-c2ccccc2)CCC4)cc1 | CCC 126 | broth dilution / absorbance | 125 µg/mL |
| CCCCCCCCCCCCn1cc[n+](COCCCCCOC[n+]2ccn(CCCCCCCCCCCC)c2)c1 | ATCC 90028 | agar diffusion | 30 µM |
| COc1ccc(-c2c3c(N)c4c(nc3nc3c2c(C)nn3-c2ccccc2)CCCCC4)cc1 | ATCC 10231 | broth dilution / absorbance | 250 µg/mL |
| CC(=O)Nc1ccc(OCC(=O)N2N=C(c3nc4ccccc4[nH]3)CC2c2ccccc2C)cc1 | MTCC 227 | - | 500 µg/mL |
| O/N=C/c1ccc(O)cc1 | - | - | >7290 µM |
| Cc1ccc(-c2nc3ccccc3c(=O)n2-c2ccc(CONN)cc2)cc1 | MTCC 227 | - | 500 µg/mL |
| COc1cccc(-c2cc3cccnc3[nH]2)c1 | ATCC 10231 | - | 31.3 µg/mL |
| COc1cc(-c2n[nH]c(COc3ncnc4ccccc34)n2)cc(OC)c1OC | MTCC 227 | - | 6.25 µg/mL |
| Cc1ccc(-c2nc3ccccc3c(=O)n2-c2ccc(C(=O)NN3C(=O)/C(=C/c4ccccc4[N+](=O)[O-])SC3c3ccc(F)cc3)cc2)cc1 | MTCC 227 | - | 100 µg/mL |
| CC(=O)Nc1ccc(OCC(=O)N2N=C(c3nc4ccccc4[nH]3)CC2c2cccc(Br)c2)cc1 | MTCC 227 | - | 500 µg/mL |
| CC1=CCC(O)(C(C)C)CC1 | ATCC 14053 | broth dilution | 310 µg/mL |
| Brc1ccc(-c2n[nH]c(COc3ncnc4ccccc34)n2)cc1 | MTCC 227 | - | 25 µg/mL |
| CCCCCCCCCCCCCCn1cc[n+](COCCCOC[n+]2ccn(CCCCCCCCCCCCCC)c2)c1 | ATCC 90028 | agar diffusion | 14 µM |
| Cc1ccc(-c2c3c(N)c4c(nc3nc3c2c(C)nn3-c2ccccc2)CCCC4)cc1 | CCC 129 | broth dilution / absorbance | 62.5 µg/mL |
| O=C1CSC(N2N=C(c3ccccc3F)CC2c2cc3ccccc3nc2Cl)=N1 | MTCC 227 | - | 1000 µg/mL |
| C/C(=N/O)C(Cl)(Cl)Cl | - | - | 3220 µM |
| O=C1CSC(N2N=C(c3ccccc3[N+](=O)[O-])CC2c2cc3ccccc3nc2Cl)=N1 | MTCC 227 | - | 250 µg/mL |
| COc1ccc(/C=C2\SC(c3ccc(F)cc3)N(NC(=O)c3ccc(-n4c(-c5ccc(C)cc5)nc5ccccc5c4=O)cc3)C2=O)cc1 | MTCC 227 | - | 1000 µg/mL |
| C[C@H]1[C@H](O)[C@@H](C)/C=C/C=C/C=C/C=C/C=C/C=C/C=C/[C@H](O[C@@H]2O[C@H](C)[C@@H](O)[C@H](N)[C@@H]2O)C[C@@H]2O[C@](O)(C[C@@H](O)C[C@@H](O)CC[C@H](O)[C@@H](O)C[C@@H](O)CC(=O)O[C@H]1C)C[C@H](O)[C@H]2C(=O)O | ATCC 10231 | - | 2.5 µg/mL |
| CCC(C)Oc1ccc(C(=O)Nc2ccc(Cc3nc4ccccc4s3)cc2)cc1 | ATCC 10231 | broth dilution | 25 µg/mL |
| Cc1ccc(-c2nc3ccccc3c(=O)n2-c2ccc(C(=O)NN3C(=O)/C(=C/c4ccccc4)SC3c3ccc(F)cc3)cc2)cc1 | MTCC 227 | - | 1000 µg/mL |
| COc1ccc(-c2cc3cc(Cl)cnc3[nH]2)c(C)c1 | ATCC 10231 | - | 250 µg/mL |
| CC(C)N1CCN(c2nc3ccc4c(ccc(=O)n4C)c3s2)CC1 | MTCC 183 | - | 62.5 µg/mL |
| FC(F)(F)c1nc(OCc2nc(-c3cccs3)n[nH]2)c2ccccc2n1 | MTCC 227 | - | 6.25 µg/mL |
| COc1ccccc1-c1cc2cccnc2[nH]1 | ATCC 10231 | - | 7.8 µg/mL |
| O=C(CCc1ccccc1)Nc1ccc(-c2nc3ccccc3s2)cc1 | ATCC 10231 | broth dilution | 25 µg/mL |
| O=C1CSC(N2N=C(c3ccc(Cl)cc3)CC2c2cc3ccccc3nc2Cl)=N1 | MTCC 227 | - | 500 µg/mL |
| COc1ccc(-c2cc3cc(C)cnc3[nH]2)cc1 | ATCC 10231 | - | 31.3 µg/mL |
| CC(=O)Nc1ccc(OCC(=O)N2N=C(c3nc4ccccc4[nH]3)CC2c2ccc(Br)cc2)cc1 | MTCC 227 | - | 100 µg/mL |
| Cc1nc(OCc2nc(-c3ccc(Cl)cc3)n[nH]2)c2ccccc2n1 | MTCC 227 | - | 6.25 µg/mL |
| C[C@H]1[C@H](O)[C@@H](C)/C=C/C=C/C=C/C=C/C=C/C=C/C=C/[C@H](O[C@@H]2O[C@H](C)[C@@H](O)[C@H](N)[C@@H]2O)C[C@@H]2O[C@](O)(C[C@@H](O)C[C@@H](O)CC[C@H](O)[C@@H](O)C[C@@H](O)CC(=O)O[C@H]1C)C[C@H](O)[C@H]2C(=O)O | CCC 130 | broth dilution / absorbance | 0.5 µg/mL |
| O/N=C\c1ccccc1 | - | - | 8260 µM |
| C[C@H]1[C@H](O)[C@@H](C)/C=C/C=C/C=C/C=C/C=C/C=C/C=C/[C@H](O[C@@H]2O[C@H](C)[C@@H](O)[C@H](N)[C@@H]2O)C[C@@H]2O[C@](O)(C[C@@H](O)C[C@@H](O)CC[C@H](O)[C@@H](O)C[C@@H](O)CC(=O)O[C@H]1C)C[C@H](O)[C@H]2C(=O)O | n. 1r | broth dilution | 2 µM |
| O=C1N[C@@H](Cc2c[nH]c3ccccc23)C(=O)N2CCC[C@@H]12 | MTCC 277 | broth dilution | 8 µg/mL |
| O/N=C\c1ccc(O)cc1 | - | broth dilution | >7290 µM |
| CCCCCCCn1cc[n+](COCCCCCCOC[n+]2ccn(CCCCCCC)c2)c1 | ATCC 90028 | agar diffusion | 5 µM |
| CC(=O)Nc1ccc(OCC(=O)N2N=C(c3nc4ccccc4[nH]3)CC2c2ccc(O)cc2)cc1 | MTCC 227 | - | 500 µg/mL |
| COc1ccc(-c2n[nH]c(COc3nc(C)nc4ccccc34)n2)cc1OC | MTCC 227 | - | 6.25 µg/mL |
| O=C(Cc1ccc([N+](=O)[O-])cc1)Nc1ccc(-c2nc3ccccc3s2)cc1 | ATCC 10231 | broth dilution | 25 µg/mL |
| COc1cccc(C2CC(c3nc4ccccc4[nH]3)=NN2C(=O)COc2ccc(NC(C)=O)cc2)c1 | MTCC 227 | - | 1000 µg/mL |
| COc1ccc(/C=C2\SC(c3ccc(F)cc3)N(NC(=O)c3ccc(-n4c(-c5ccc(C)cc5)nc5ccccc5c4=O)cc3)C2=O)c(O)c1 | MTCC 227 | - | 1000 µg/mL |
| Oc1ccc(-c2n[nH]c(COc3ncnc4ccccc34)n2)cc1 | MTCC 227 | - | 12.5 µg/mL |
| O=C(Nc1ccc(Cc2nc3ccccc3s2)cc1)c1ccc(F)cc1 | ATCC 10231 | broth dilution | 25 µg/mL |
| Clc1ccc(-c2n[nH]c(COc3ncnc4ccccc34)n2)cc1 | MTCC 227 | - | 25 µg/mL |
| Cn1c(=O)ccc2c3sc(N4CCN(c5cccc(C(F)(F)F)c5)CC4)nc3ccc21 | MTCC 183 | - | 62.5 µg/mL |
| CCCn1cc[n+](COCCCCCOC[n+]2ccn(CCC)c2)c1 | ATCC 90028 | agar diffusion | 736 µM |
| Cc1nc(OCc2nc(-c3ccccc3)n[nH]2)c2ccccc2n1 | MTCC 227 | - | 12.5 µg/mL |
| C[C@H]1[C@H](O)[C@@H](C)/C=C/C=C/C=C/C=C/C=C/C=C/C=C/[C@H](O[C@@H]2O[C@H](C)[C@@H](O)[C@H](N)[C@@H]2O)C[C@@H]2O[C@](O)(C[C@@H](O)C[C@@H](O)CC[C@H](O)[C@@H](O)C[C@@H](O)CC(=O)O[C@H]1C)C[C@H](O)[C@H]2C(=O)O | ATCC 90028 | broth dilution | 0.5 µg/mL |
| Cc1cc(O)c2c(c1)C(=O)c1cc(O)c(O)c(O)c1C2=O | - | visual reading | 9–18 µM |
| O=C(Cc1ccccc1)Nc1ccc(-c2nc3ccccc3s2)cc1 | ATCC 10231 | broth dilution | 25 µg/mL |
| Cc1ccc(-c2nc3ccccc3c(=O)n2-c2ccc(C(=O)NN3C(=O)/C(=C/c4ccc(O)cc4)SC3c3ccc(F)cc3)cc2)cc1 | MTCC 227 | - | 1000 µg/mL |
| CC(C)(C)c1ccc(C(=O)Nc2ccc(Cc3nc4ccccc4s3)cc2)cc1 | ATCC 10231 | broth dilution | 25 µg/mL |
| C/C(Cl)=C/C=C/C=C/C=C/C=C/C(O)=C1\C(=O)[C@H](CC(N)=O)N(C2OC[C@@H](O)[C@H](O)[C@@H]2O[C@@H]2OC[C@@H](O[C@@H]3O[C@H](C)[C@@H](O)[C@@H]3O)[C@@H](O)[C@@H]2O)C1=O | Wild type (ATCC 32354) | - | 1.95 µg/mL |
| CC(=O)Nc1ccc(OCC(=O)N2N=C(c3nc4ccccc4[nH]3)CC2c2ccccc2[N+](=O)[O-])cc1 | MTCC 227 | - | 100 µg/mL |
| CCCCn1cc[n+](COCCOC[n+]2ccn(CCCC)c2)c1 | ATCC 90028 | agar diffusion | 1634 µM |
| Cn1c(=O)ccc2c3sc(N4CCN(c5cccc(Cl)c5Cl)CC4)nc3ccc21 | MTCC 183 | - | 62.5 µg/mL |

For reference, 6 entries again:

{"smiles": "O=C1CSC(N2N=C(c3ccc(F)cc3)CC2c2cc3ccccc3nc2Cl)=N1", "strain": "MTCC 227", "result": "250 µg/mL"}
{"smiles": "Cc1ccc(-c2c3c(N)c4c(nc3nc3c2c(C)nn3-c2ccccc2)CCCCC4)cc1", "strain": "CCC 130", "method": "broth dilution / absorbance", "result": "125 µg/mL"}
{"smiles": "CC(=O)Nc1ccc(OCC(=O)N2N=C(c3nc4ccccc4[nH]3)CC2c2ccc([N+](=O)[O-])cc2)cc1", "strain": "MTCC 227", "result": "100 µg/mL"}
{"smiles": "COc1cccc(-c2cc3cccnc3[nH]2)c1", "strain": "ATCC 10231", "result": "31.3 µg/mL"}
{"smiles": "FC(F)(F)c1nc(OCc2nc(-c3cccs3)n[nH]2)c2ccccc2n1", "strain": "MTCC 227", "result": "6.25 µg/mL"}
{"smiles": "Clc1ccc(-c2n[nH]c(COc3ncnc4ccccc34)n2)cc1", "strain": "MTCC 227", "result": "25 µg/mL"}